{"source": "PubChem BioAssay AID624099 (ICCB-Longwood, 2012)", "purpose": "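Host factors E2 relies on to silence an HPV18 LCR reporter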 (primary screen)", "cell system": "human C33A cervical carcinoma cells (HPV-negative) stably expressing BPV1 E2 and an HPV18 LCR luciferase reporter", "reagent": "siRNA pool against human genes, 40 nM", "timing": "72 h", "read-out": "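HPV18 LCR reporter light per well, converted to plate-wise z-scores that exclude control wells, and averaged over triplicate plates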", "scale": "mean z-score and z-score: higher = stronger reporter signal, weaker E2 silencing", "rule for the call": "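Mean z ≥ 2 together with z ≥ 2 in two or more of the three replicates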", "note": "Here is an unselected part of about 21,000 deposited reagents. 497 of all reagents (2.4%) count as active. 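Higher z means weaker E2 silencing; only reporter increases were scored, and knock-downs that hurt cell survival may mask genuine repressor factors.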"}
{"gene": "SLC16A1", "PubChem SID": "SID134312450", "mean z-score": 0.86, "z-score, replicate A": 0.84, "z-score, replicate B": 0.87, "z-score, replicate C": 0.88, "Call": "inactive"}
{"gene": "EXOSC6 (exosome component 6)", "PubChem SID": "SID134317246", "mean z-score": -0.81, "z-score, replicate A": -0.42, "z-score, replicate B": -0.78, "z-score, replicate C": -1.23, "Call": "inactive"}
{"gene": "MELK (maternal embryonic leucine zipper kinase)", "PubChem SID": "SID56478756", "mean z-score": 1.52, "z-score, replicate A": 1.58, "z-score, replicate B": 1.58, "z-score, replicate C": 1.4, "Call": "inactive"}
{"gene": "MARK4 (microtubule affinity regulating kinase 4)", "PubChem SID": "SID56479022", "mean z-score": -0.71, "z-score, replicate A": -0.22, "z-score, replicate B": -0.98, "z-score, replicate C": -0.92, "Call": "inactive"}
{"gene": "ZNF519 (zinc finger protein 519)", "PubChem SID": "SID134312272", "mean z-score": -0.13, "z-score, replicate A": -0.26, "z-score, replicate B": -0.17, "z-score, replicate C": 0.04, "Call": "inactive"}
{"gene": "DHRS12 (dehydrogenase/reductase 12)", "PubChem SID": "SID134318575", "mean z-score": 0.54, "z-score, replicate A": 0.63, "z-score, replicate B": 0.6, "z-score, replicate C": 0.39, "Call": "inactive"}
{"gene": "RGS17 (regulator of G protein signaling 17)", "PubChem SID": "SID134314246", "mean z-score": -0.28, "z-score, replicate A": -0.26, "z-score, replicate B": -0.05, "z-score, replicate C": -0.53, "Call": "inactive"}
{"gene": "RASGEF1B (RasGEF domain family member 1B)", "PubChem SID": "SID134319487", "mean z-score": 0.25, "z-score, replicate A": 0.36, "z-score, replicate B": 0.14, "z-score, replicate C": 0.24, "Call": "inactive"}
{"gene": "POLDIP2 (DNA polymerase delta interacting protein 2)", "PubChem SID": "SID134317251", "mean z-score": 1.17, "z-score, replicate A": 1.03, "z-score, replicate B": 1.55, "z-score, replicate C": 0.94, "Call": "inactive"}
{"gene": "UBE2E2 (ubiquitin conjugating enzyme E2 E2)", "PubChem SID": "SID134329290", "mean z-score": 0.1, "z-score, replicate A": 0.18, "z-score, replicate B": 0.2, "z-score, replicate C": -0.09, "Call": "inactive"}
{"gene": "TMCO5A (transmembrane and coiled-coil domains 5A)", "PubChem SID": "SID134320374", "mean z-score": -0.52, "z-score, replicate A": -0.52, "z-score, replicate B": -0.84, "z-score, replicate C": -0.18, "Call": "inactive"}
{"gene": "NDUFA13 (NADH:ubiquinone oxidoreductase subunit A13)", "PubChem SID": "SID134320893", "mean z-score": 1.16, "z-score, replicate A": 0.63, "z-score, replicate B": 1.7, "z-score, replicate C": 1.15, "Call": "inactive"}

A few values from the list:
Under “z-score, replicate C”, ZNF519 (zinc finger protein 519) [SID134312272] is entered as 0.04
Result for UBE2E2 (ubiquitin conjugating enzyme E2 E2) [SID134329290] in “z-score, replicate B”: 0.2
